Results of unrelated studies side by side (data: NIAID ChemDB).

All rows: whole-cell or culture tests; agent: Hepatitis C virus; read by: replicon; read-out: EC50

Conditions beyond the fields shown may differ between rows. a–b is a range or a potency band. Blank or dashed fields: not listed here. ECn: concentration that inhibits the pathogen or its effect by n%.

SMILES,cell line,strain or isolate,value
O=C(Nc1ccc(C2SC(=Nc3ccc(N4CCOCC4)cc3)N(Cc3ccccn3)C2=O)cc1)[C@H]1CCCN1C(=O)C(F)c1ccccc1,Huh7,,<0.1 µM
C=CC1CC1(NC(=O)[C@@H]1C[C@@H](Oc2cc(-c3ccccc3)nc3cc(OC)ccc23)CN1C(=O)[C@H](C1CCCCC1)N1CCCCC1)C(=O)NS(=O)(=O)C1CC1,,1b,<100 µM
C[C@@H](NC(=O)Cc1ccccc1)C(=O)Nc1ccc(C2SC(=Nc3cccc(F)c3)N(c3ccccn3)C2=O)cc1,Huh7,,<0.1 µM
C=CC1C[C@]1(NC(=O)[C@@H]1C[C@@H](Oc2cc(-c3ccccc3)nc3cc(OC)ccc23)CN1C(=O)[C@H](c1ccccc1)N1CCCCC1)C(=O)NS(=O)(=O)C1CC1,,1b,<100 µM
O=C(Cc1cc(F)ccc1F)N/N=C/c1ccccc1OS(=O)(=O)c1ccc(C(F)(F)F)cc1,Huh7,,<5 µM
COc1cc(C(=O)N2[C@@H](c3ncc(C)s3)[C@@H](c3cnccn3)C[C@@]2(Cc2nccs2)C(=O)O)ccc1C(C)(C)C,Huh7,genotype 1b,<0.1 µM
CCCC(NC(=O)C1C2CCCC2CN1C(=O)[C@H](C(C)C)N1CCCCC1)C(=O)C(=O)NC1CC1,,1b,<100 µM
O=C(Cc1ccccc1)N/N=C/c1ccccc1OS(=O)(=O)c1ccccc1F,Huh7,,>50 µM
COc1cc(C(=O)N2[C@@H](c3nccs3)[C@@H](c3cnccn3)C[C@@]2(Cc2nccs2)C(=O)O)ccc1C(C)(C)C,Huh7,Genotype 1A,<10 µM
O=C(Cc1cccc(OC(F)(F)F)c1)N/N=C/c1ccccc1OS(=O)(=O)c1ccc(C(F)(F)F)cc1,Huh7,,<5 µM
COC(=O)c1ccc(N2CCN(S(=O)(=O)c3ccc(OC(F)(F)F)cc3)C(C(=O)NCc3ccc(OC(F)(F)F)cc3)C2)nn1,,1a,1.6 µM
COc1cc(C(=O)N2[C@@H](c3ncc(C)s3)[C@@H](c3cnccn3)C[C@@]2(Cn2cccn2)C(=O)O)ccc1C(C)(C)C,Huh7,genotype 1b,<0.1 µM
O=S(=O)(Cc1cccc(Cl)c1)N/N=C/c1ccccc1NS(=O)(=O)c1ccc(C(F)(F)F)cc1,Huh7,,5–50 µM
CCCOc1cc2c(C(=O)NC)c(-c3ccc(F)cc3)oc2cc1N(CS(C)(=O)=O)OC,Huh7,,<1 µM
COc1cc(C(=O)N2[C@@H](c3ncc(C)s3)[C@@H](c3cnccn3)C[C@@]2(Cc2ccsn2)C(=O)O)ccc1C(C)(C)C,Huh7,Genotype 1A,<10 µM
O=C(Nc1ccc(C2SC(=Nc3cc(F)cc(F)c3)N(Cc3ccco3)C2=O)cc1)[C@H]1CCCN1C(=O)OCc1ccccc1,Huh7,,0.1–1 µM
Cc1cc(C)n2nc(CC3=C(O)CC(CCc4ccc(C(C)(C)C#N)c(Cl)c4)(C4CCCC4)OC3=O)nc2n1,,WT,0.05 µM
C=CC1CC1(NC(=O)[C@@H]1C[C@@H](Oc2cc(-c3ccccc3)nc3cc(OC)ccc23)CN1C(=O)[C@@H](N1CCCCC1)C(C)(C)C)C(=O)OCC,,1b,<100 µM
CO[C@@H](C(=O)N[C@H](C)C(=O)Nc1ccc(C2SC(=NC(C)C)N(Cc3ccccn3)C2=O)cc1)c1ccccc1,Huh7,,<0.1 µM
CNC(=O)c1c(-c2ccc(F)cc2)oc2ccc(OC)cc12,Huh7,,<10 µM
Cc1ccc(S(=O)(=O)Oc2ccccc2/C=N/NC(=O)Cc2cccc(Cl)c2)cc1,Huh7,,<5 µM
O=C(Nc1ccc(C2SC(=Nc3ccc(N4CCOCC4)cc3)N(Cc3ccccn3)C2=O)cc1)[C@H]1CCCN1C(=O)OCc1ccccc1,Huh7,,<0.1 µM
CCNS(=O)(=O)c1cc2oc(-c3ccc(F)cc3)c(C(=O)NC)c2cc1OC(C)C,Huh7,,<10 µM
CCCC(NC(=O)C1C2CCCC2CN1C(=O)C(C)N1CCCCCC1)C(=O)C(=O)NC1CC1,,1b,<100 µM
COc1ccc(CC(=O)N/N=C/c2ccccc2N(C)S(=O)(=O)c2ccc(C(F)(F)F)cc2)cc1OC,Huh7,,<5 µM
O=C(Nc1ccc(C2SC(=Nc3ccc(N4CCOCC4)cc3)N(Cc3ccccn3)C2=O)cc1)[C@H]1CCCN1C(=O)Cc1c(Cl)cccc1Cl,Huh7,,<0.1 µM
COc1cc(C(=O)N2[C@@H](c3nccs3)[C@@H](c3cnccn3)C[C@@]2(CCS(C)(=O)=O)C(=O)O)ccc1C(C)(C)C,Huh7,genotype 1b,>10 µM
CCCC(NC(=O)[C@@H]1C[C@@H](OC(=O)N2CCc3ccccc3C2)CN1C(=O)C(C)N1CCCC1)C(=O)C(=O)NC1CC1,,1b,<100 µM
CCc1ccc(S(=O)(=O)N2CCN(c3cc(OC)nc(OC)n3)CC2C(=O)NCc2ccc(OC)cc2)cc1,,Mutant NS5B Y452H,19 µM
C#Cc1cn([C@@H]2O[C@H](CO)[C@@H](O)[C@@]2(C)O)c2ncnc(N)c12,ET,,0.09 µM
CNC(=O)c1c(-c2ccc(F)cc2)oc2cc(N(C)S(C)(=O)=O)c(C(N)=O)c(OC)c12,Huh7,,<1 µM
Cc1ccc(S(=O)(=O)Oc2cccc(F)c2/C=N/NC(=O)Cc2cccc(Cl)c2)cc1,Huh7,,5–50 µM
CCC#Cc1cn([C@@H]2O[C@H](CO)[C@@H](O)[C@@]2(C)O)c2ncnc(N)c12,ET,,>50 µM
C=CC1C[C@@]1(NC(=O)[C@@H]1C[C@@H](Oc2cc(-c3ccccc3)nc3cc(OC)ccc23)CN1C(=O)[C@H](c1ccccc1)N1CCCCC1)C(=O)NS(=O)(=O)C1CC1,,1b,<100 µM
CNC(=O)c1c(-c2ccc(F)cc2)oc2cc(CN3CCOCC3)c(OC(C)C)cc12,Huh7,,<10 µM
C=CC1CC1(NC(=O)[C@@H]1C[C@@H](Oc2cc(-c3ccccc3)nc3cc(OC)ccc23)CN1C(=O)[C@H](C1CCCCC1)N1CCCCC1)C(=O)O,,1b,<100 µM
Cn1cnc(CC(=O)N/N=C/c2ccccc2OS(=O)(=O)c2ccc(C(F)(F)F)cc2)c1,Huh7,,<5 µM
CNC(=O)c1c(-c2ccc(F)cc2)oc2cc(N3CCN(C)CC3)c(OC(C)C)cc12,Huh7,,>30 µM
C[C@@H](NC(=O)OCc1ccccc1)C(=O)Nc1ccc(C2SC(=Nc3cccc(F)c3)N(Cc3cccnc3)C2=O)cc1,Huh7,,<0.1 µM
CNC(=O)c1c(-c2ccc(F)cc2)oc2cc(-c3c(C)noc3C)c(OC)cc12,Huh7,,<1 µM
O=C(Nc1ccc(C2SC(=Nc3ccc(N4CCOCC4)cc3)N(Cc3ccncc3)C2=O)cc1)[C@H]1CCCN1C(=O)OCc1ccccc1,Huh7,,<0.1 µM

The first 2 rows once more:

SMILES,cell line,strain or isolate,value
O=C(Nc1ccc(C2SC(=Nc3ccc(N4CCOCC4)cc3)N(Cc3ccccn3)C2=O)cc1)[C@H]1CCCN1C(=O)C(F)c1ccccc1,Huh7,,<0.1 µM
C=CC1CC1(NC(=O)[C@@H]1C[C@@H](Oc2cc(-c3ccccc3)nc3cc(OC)ccc23)CN1C(=O)[C@H](C1CCCCC1)N1CCCCC1)C(=O)NS(=O)(=O)C1CC1,,1b,<100 µM